# Residue numbers refer to the chain shown, from its start. Names may count otherwise. Like-named read-outs stand apart in the source and are kept apart here.
# B1: rFluA-20 (recombinant FluA-20 IgG) (antibody, V domains shown)
# VH: QVQLQESGPGLVKPSETLSLTCSVSGVSVTSDIYYWTWIRQPPGKGLEWIGYIFYNGDTNYNPSLKSRVTMSIDTSKNEFSLRLTSVTAADTAVYFCARGTEDLGYCSSGSCPNHWGQGTLVTVSS
# VL: DIQMTQSPSSLSASIGDRVTITCRPSQNIRSFLNWFQHKPGKAPKLLIYAASNLQSGVPSRFSGSGSGTEFTLTIRSLQPEDFATYYCQQSYNTPPTFGQGTKVEIK
# B2: FluA-20 Fab (Fab, V domains shown)
# VH: B1 VH
# VL: B1 VL
# B3: rFluA-20 heavy chain mutant Y100aA (antibody, V domains shown)
# VH: B1 VH with Y106A
# VL: B1 VL
# B4: rFluA-20 heavy chain mutant D98A (antibody, V domains shown)
# VH: B1 VH with D103A
# VL: B1 VL
# B5: rFluA-20 heavy chain mutant E97A (antibody, V domains shown)
# VH: B1 VH with E102A
# VL: B1 VL
# B6: rFluA-20 light chain mutant N53A (antibody, V domains shown)
# VH: B1 VH
# VL: B1 VL with N53A
# notes: recombinant IgG
# B7: rFluA-20 light chain mutant Y49A (antibody, V domains shown)
# VH: B1 VH
# VL: B1 VL with Y49A
# notes: recombinant IgG
# B8: rFluA-20 heavy chain mutant Y34A (antibody, V domains shown)
# VH: B1 VH with Y34A
# VL: B1 VL
# B9: rFluA-20 heavy chain mutant T96A (antibody, V domains shown)
# VH: B1 VH with T101A
# VL: B1 VL
# B10: rFluA-20 light chain mutant Q55A (antibody, V domains shown)
# VH: B1 VH
# VL: B1 VL with Q55A
# notes: recombinant IgG
# B11: H5.31 (antibody, V domains shown)
# VH: EVQLVQSGGGLVQPGGSLRLSCEASRFTSSSYWITWVRQAPGKGLEWVANIKQDGSEKYFVDSVKGRFTISRDNASNSLYLQMSSLRAEDTAVYYCARGFLERLLLGRQGAYYYGMDVWGQGTTVTVSS
# VL: DIQMTQSPSSLSASVGDRVTMTCRASQSISSSLNWYQQKPGKAPKLLIYAASNLQSGVPSRFSGSGSGTDFTLTISSLQPEDFATYYCQQSYTMPPELTFGGGTKVQIK
# B12: H5.28 (antibody, V domains shown)
# VH: EVQLVESGGGLVQPGGSLRLSCAASGFTFSTYWMTWVRQAPGKGLEWVANINQDGGEKYFVDSVKGRFTISRDNAKNSLFLQMNTLRAEDTAVYYCARGFLERLLLGRQGAYYYGMDVWGQGTTVTVSS
# VL: B11 VL with T20S, S28I, T93S, M94T, Q107E
# B13: UCA (antibody, V domains shown)
# VH: QVQLQESGPGLVKPSETLSLTCTVSGGSVSSGSYYWSWIRQPPGKGLEWIGYIYYSGSTNYNPSLKSRVTISVDTSKNQFSLKLSSVTAADTAVYYCARGTEDLGYCSGGSCPNHWGQGTLVTV
# VL: not shown
# Key:
# [1] = molecular target: T1, HA of A/Texas/50/2012 (H3N2) (influenza A virus (H3N2)); assay: ELISA
# T1 construct: extracellular domain
# [2] = molecular target: T2, HA of A/shearwater/Western Australia/2576/1979 (H15N9) (influenza A virus (H15N9)); assay: ELISA
# [3] = molecular target: T3, HA of A/Hong Kong/1073/99 (H9) (influenza A virus (H9)); assay: ELISA
# [4] = molecular target: T4, HA of A/mallard duck/Astrakhan/263/1982 (H14N5) (influenza A virus (H14N5)); assay: ELISA
# [5] = molecular target: T5, HA of A/Vietnam/1203/2004 (H5N1) (influenza A virus (H5N1)); assay: BLI, Fab on immobilized biotinylated HA
# [6] = molecular target: T6, HA of A/Victoria/361/2011 (H3N2) (influenza A virus (H3N2)); assay: BLI, Fab on immobilized biotinylated HA
# T6 construct: extracellular domain
# [7] = molecular target: T7, HA of A/Indonesia/5/2005 (H5N1) (influenza A virus (H5N1)); assay: BLI, Fab on immobilized biotinylated HA
# [8] = molecular target: T8, HA of A/duck/Alberta/60/1976 (H12N5) (influenza A virus (H12N5), UniProt P03446 17-530); assay: ELISA
# [9] = molecular target: T9, HA of A/Netherlands/219/2003 (H7N7) (influenza A virus (H7N7)); assay: Octet (BLI) with HA
# [10] = molecular target: T8, HA of A/duck/Alberta/60/1976 (H12N5); assay: Octet (BLI) with HA
# [11] = molecular target: T5, HA of A/Vietnam/1203/2004 (H5N1); assay: Octet (BLI) with HA
# [12] = molecular target: T10, HA of A/chicken/Germany/N/1948 (H10N7) (influenza A virus (H10N7)); assay: Octet (BLI) with HA
# [13] = molecular target: T4, HA of A/mallard duck/Astrakhan/263/1982 …; assay: Octet (BLI) with HA
# [14] = molecular target: T11, HA of A/Fort Monthouth/1947 (H1N1) (influenza A virus (H1N1)); assay: ELISA (highest dilution tested 1/50,000)
# [15] = molecular target: T5, HA of A/Vietnam/1203/2004 (H5N1); assay: ELISA (highest dilution tested 1/50,000)
# [16] = molecular target: T7, HA of A/Indonesia/5/2005 (H5N1); assay: ELISA (highest dilution tested 1/50,000)
# [17] = molecular target: T9, HA of A/Netherlands/219/2003 (H7N7); assay: ELISA, recombinant HA
# [18] = molecular target: T8, HA of A/duck/Alberta/60/1976 (H12N5); assay: ELISA, recombinant HA
# [19] = molecular target: T12, HA of A/Switzerland/9715293/2013 (H3) (influenza A virus (H3)); assay: ELISA, recombinant HA
# T12 construct: extracellular domain
# [20] = molecular target: T13, HA of A/Taiwan/2/2013 (H6) (Influenza A virus A/Taiwan/2/2013 (H6)); assay: ELISA, recombinant HA
# [21] = molecular target: T11, HA of A/Fort Monthouth/1947 (H1N1); assay: ELISA, recombinant HA
# [22] = molecular target: T1, HA of A/Texas/50/2012 (H3N2); assay: ELISA, recombinant HA
# [23] = molecular target: T10, HA of A/chicken/Germany/N/1948 (H10N7); assay: ELISA, recombinant HA
# [24] = molecular target: T14, HA of A/Solomon Islands/03/2006 (H1N1) (influenza A virus (H1N1)); assay: ELISA, recombinant HA
# T14 construct: extracellular domain
# [25] = molecular target: T2, HA of A/shearwater/Western …; assay: ELISA, recombinant HA
# [26] = molecular target: T15, HA of A/Texas/36/1991 (H1N1) (influenza A virus (H1N1)); assay: ELISA, recombinant HA
# T15 construct: extracellular domain
# [27] = molecular target: T3, HA of A/Hong Kong/1073/99 (H9); assay: ELISA, recombinant HA
# [28] = molecular target: HA of A/Shanghai/2/2013 (H7N9) (influenza A virus (H7N9)); assay: ELISA, recombinant HA
# [29] = molecular target: T4, HA of A/mallard duck/Astrakhan/263/1982 …; assay: ELISA, recombinant HA
# [30] = molecular target: T9, HA of A/Netherlands/219/2003 (H7N7); assay: ELISA, recombinant HA; remark: listed apart in the source
# [31] = molecular target: T13, HA of A/Taiwan/2/2013 (H6); assay: ELISA, recombinant HA; remark: listed apart in the source
# [32] = molecular target: T11, HA of A/Fort Monthouth/1947 (H1N1); assay: ELISA, recombinant HA; remark: listed apart in the source
# [33] = molecular target: T14, HA of A/Solomon Islands/03/2006 (H1N1); assay: ELISA, recombinant HA; remark: listed apart in the source
# [34] = molecular target: T15, HA of A/Texas/36/1991 (H1N1); assay: ELISA, recombinant HA; remark: listed apart in the source
# [35] = molecular target: T3, HA of A/Hong Kong/1073/99 (H9); assay: ELISA, recombinant HA; remark: listed apart in the source
binder,measurement,setting,value
B1,EC50,[1],7 ng/mL
same,EC50,[2],7 ng/mL
same,EC50,[3],7 ng/mL
same,EC50,[4],7 ng/mL
B2,Kd,[5],122 nM
same,Kd,[6],15 nM
same,Kd,[7],88 nM
B3,EC50 fold over wild-type rFluA-20,[8],> 100 fold
B4,binding result,[8],no binding (tested: 10 µg/mL)
B5,EC50,[8],0.06 µg/mL
B6,EC50,[8],0.03 µg/mL
B7,binding result,[8],no binding (tested: 10 µg/mL)
B8,EC50,[8],0.05 µg/mL
B9,EC50,[8],0.04 µg/mL
B10,EC50 fold over wild-type rFluA-20,[8],> 100 fold
B11,Kd,[9],83 nM
same,Kd,[10],13 nM
same,Kd,[11],3.8 nM
same,Kd,[12],14 nM
same,Kd,[13],2500 nM
same,EC50,[14],0.012 µg/mL
same,EC50,[15],0.006 µg/mL
same,EC50,[16],27 µg/mL
B12,Kd,[10],71 nM
same,Kd,[12],85 nM
same,EC50,[14],0.044 µg/mL
same,EC50,[15],0.366 µg/mL
same,EC50,[16],21 µg/mL
B13,EC50,[17],0.083 µg/mL
same,EC50,[18],0.067 µg/mL
same,EC50,[19],2.37 µg/mL
same,EC50,[20],0.831 µg/mL
same,EC50,[21],0.039 µg/mL
same,EC50,[22],1.3 µg/mL
same,EC50,[23],0.361 µg/mL
same,EC50,[24],0.036 µg/mL
same,EC50,[25],0.073 µg/mL
same,EC50,[26],0.048 µg/mL
same,EC50,[27],0.342 µg/mL
same,EC50,[28],0.15 µg/mL
same,EC50,[29],0.132 µg/mL
same,EC50,[30],0.033 µg/mL
same,EC50,[31],0.342 µg/mL
same,EC50,[32],0.017 µg/mL
same,EC50,[33],0.01 µg/mL
same,EC50,[34],0.015 µg/mL
same,EC50,[35],0.052 µg/mL
